Results of unrelated studies side by side (data: NIAID ChemDB).

All rows: toxicity to cultured cells; cell line: HEK 293; read-out: CC50

CCn is the concentration with n% toxicity to the cells. Blank or dashed fields: not listed here. Neighbouring rows are from separate reports.

SMILES	read by	value
CCOC(=O)CCCCCOc1cccc(CN(C(=O)c2ccc(-c3cccc(C#N)c3)cc2)C(C)C)c1		>20 µM
C=C(C)[C@@H]1CC[C@]2(C#N)CC[C@]3(C)[C@H](CC[C@@H]4[C@@]5(C)CC[C@H](OC(=O)CC(C)(C)C(=O)O)C(C)(C)[C@@H]5CC[C@]43C)[C@@H]12		>300 µM
O=C1NC(=Nc2ccc(F)c(Cl)c2)S/C1=C\c1ccc(-c2ccc(C(=O)O)c(O)c2)o1	MTT	12 µM
CC(C)[C@@H]1CC[C@]2(C=O)CC[C@]3(C)[C@H](CC[C@@H]4[C@@]5(C)CCC(OC(=O)CC(C)(C)C(=O)[O-])C(C)(C)[C@@H]5CC[C@]43C)[C@@H]12		>300 µM
CCOC(=O)CCCCCOc1cccc(CN(C(=O)c2ccc(-c3cccc(S(C)(=O)=O)c3)cc2)C(C)C)c1		>20 µM
NCCC1=c2c(O)c3c(c(O)c2N=C1)=NC=CS3(=O)=O		3.9 µM
C=C(C)[C@@H]1CC[C@]2(C=O)CC[C@]3(C)[C@H](CC[C@@H]4[C@@]5(C)CCC(OC(=O)CC(C)(C)C(=O)[O-])C(C)(C)[C@@H]5CC[C@]43C)[C@@H]12		29 µM
CC1=C(O)C(C)(C)C(=O)C2=C1O[C@H](c1ccccc1)CC2=O	sulforhodamine	>20 µg/mL
O=C1NC(=NCCc2ccc(Cl)c(Cl)c2)S/C1=C\c1ccc(-c2ccc(C(=O)O)c(O)c2)o1	MTT	>100 µM
COc1ccc2c(Cc3c4ccccc4cc4ccccc34)cncc2c1O	fluorescence	>50 µM
COc1cccc(CN(C(=O)N[C@H](CO)Cc2ccccc2)N2CCOCC2)c1	MTT	37.2 µM
Cc1ccc(-n2nc(C(C)(C)C)cc2Nc2nc3ccccc3nc2NCCCO)cc1	fluorescence	>20 µM
CC(C)N(Cc1cccc(OCCCCCC(=O)O)c1)C(=O)c1ccc(-c2ccc3c(c2)OCO3)cc1		>20 µM
O=C(N[C@H](CO)Cc1ccccc1)N(Cc1ccccc1)N1CCCCC1	MTT	34.8 µM
CCOC(OCC)C1=NCCc2cc(OC)c(OC)cc21		<7.5 µM
CC(C)(CC(=O)O[C@H]1CC[C@]2(C)[C@H]3CC[C@@H]4[C@@H]5C(CC[C@@]4(C)[C@]3(C)CC[C@H]2C1(C)C)[C@H]1CC(C)(C)[C@@H]5NC1=O)C(=O)O		>150 µM
CCOC(=O)COc1ccc(CN(C(=O)c2ccc(-c3ccc4c(c3)OCO4)cc2)C(C)C)cc1		>20 µM
Cc1ccc(C)c(SCc2nc3cc4ccccc4cc3nc2CSc2cc(C)ccc2C)c1	fluorescence	>20 µM
CC(C)N(Cc1cccc(OCCCCCC(=O)OC(=O)O)c1)C(=O)c1ccc(-c2cccc(C(F)(F)F)c2)cc1		>20 µM
O=C(N[C@H](CO)Cc1ccc(O)cc1)N(Cc1ccccc1)N1CCCCC1	MTT	47.9 µM
CC(C)N(Cc1cccc(OCCCCCC(=O)OC(=O)O)c1)C(=O)c1ccc(-c2ccc3ccccc3c2)cc1		>20 µM
CCC(O)[NH+]1CC[NH+](C(O)CC)CC1.[Cl][Pt-2]([Cl])([Cl])([Cl])([Cl])[Cl]	fluorescence	>10 µM

For reference, 2 entries again:

SMILES	read by	value
CC(C)N(Cc1cccc(OCCCCCC(=O)OC(=O)O)c1)C(=O)c1ccc(-c2cccc(C(F)(F)F)c2)cc1		>20 µM
O=C1NC(=Nc2ccc(F)c(Cl)c2)S/C1=C\c1ccc(-c2ccc(C(=O)O)c(O)c2)o1	MTT	12 µM